Pooled drug test results. Numbers come from NIAID ChemDB, via PubChem.

All rows: cytotoxicity tests; cell line: VERO; measure: CC50

Lines come from different laboratories, so protocols vary. CCn: concentration that lowers growth or viability of the cells by n%. An empty or dashed field is not shown.

compound | method | result
CCN(CCO)CCNc1ccc(C)c2sc3cc(Cl)ccc3c(=O)c12 |  | 4.7 µg/mL
C/C=C1\[C@H](OC2O[C@H](CO)[C@@H](O)[C@H](O)[C@H]2O)OC=C(C(=O)OC)[C@H]1CC(=O)OCC1O[C@H](OCCc2ccc(O)c(O)c2)[C@@H](O)[C@H](O)[C@H]1O |  | 291.7 µM
COc1cc(/C=C/C(=O)O)ccc1O |  | >102 µg/mL
O=C(CO)N1CC=C(c2cc3c(cc2F)N2C(=O)O[C@@H](CNc4ccon4)[C@@H]2CO3)CC1 | resazurin | >64 µg/mL
OC[C@H]1O[C@H](n2cnc3c(Cl)ncnc32)CS1 |  | 86.1 µM
O=[N+]([O-])c1ccc2oc([N+](=O)[O-])cc2c1 |  | 0.31 µg/mL
Oc1cc(C(O)CCc2ccc(Cl)cc2)ccc1Oc1ccccc1 | MTT | >300 µg/mL
O=C1c2ccccc2C(=O)c2c1sc1nc3ccccc3n21 |  | 0.3 µg/mL
O=c1c(O)c(-c2cc(O)c(O)c(O)c2)oc2cc(O)cc(O)c12 |  | >100 µg/mL
CO[C@H]1/C=C/O[C@@]2(C)Oc3c(C)c(O)c4c(O)c(c(/C=N/N5CCN(C)CC5)c(O)c4c3C2=O)NC(=O)/C(C)=C\C=C\[C@H](C)[C@H](O)[C@@H](C)[C@@H](O)[C@@H](C)[C@H](OC(C)=O)[C@@H]1C | MTT | 512 µg/mL
CCCC(=O)c1c(O)c(CC2(C)C(=O)C(C(=O)C(C)CC)=C(O)C(C)=C2O)c(O)c(C)c1OC |  | ≥1 µM
OC(c1cc(-c2ccc(Cl)cc2)nc2c(Cl)cccc12)C1CCCCN1 |  | 1.5 µg/mL
Cn1c2ccccc2c2cc(C=NNc3nc(-c4ccc(Cl)cc4)cs3)ccc21 | MTT | 389.6 µM
C/C=C1\[C@H](OC2O[C@H](CO)[C@@H](O)[C@H](O)[C@H]2O)OC=C(C(=O)OC)[C@H]1CC(=O)OC |  | 166.7 µM
COc1cc([C@@H]2OC[C@@]3(O)[C@@H]2CO[C@H]3c2ccc(O)c(OC)c2)ccc1O |  | 91 µg/mL
Cc1ccc(NCCN(C)C)c2c(=O)c3cccc(O)c3sc12 |  | 0.79 µg/mL
CO[C@H]1/C=C/O[C@@]2(C)Oc3c(C)c(O)c4c(O)c(c(/C=N/N5CCN(C)CC5)c(O)c4c3C2=O)NC(=O)/C(C)=C\C=C\[C@H](C)[C@H](O)[C@@H](C)[C@@H](O)[C@@H](C)[C@H](OC(C)=O)[C@@H]1C | luminescence | >100 µM
CC1=CC(=O)c2c(ccc(-c3ccc4c(c3O)C(=O)C=C(C)C4=O)c2O)C1=O |  | 0.13 µg/mL
O=C(NC[C@@H]1OC(=O)N2c3cc(F)c(C4=CCN(C(=O)CO)CC4)cc3OC[C@@H]12)C1CCC1 | resazurin | >64 µg/mL
O=C([O-])C(F)(F)F.O=C([O-])C(F)(F)F.c1ccc2c(c1)[C@H]1[NH2+][C@@H]2CC1n1cnc2c([NH2+]C3CC3)ncnc21 | MTS | >91 µM
Oc1cc(O)c2c(c1)O[C@H](c1ccc(O)c(O)c1)[C@H](O)C2 |  | >50 µg/mL
O=c1[nH]c(=O)c2c(-c3cccc([N+](=O)[O-])c3)c3c(=O)[nH]cnc3nc2[nH]1 |  | 50 µg/mL
C[C@H]1[C@H](C)CC[C@]2(C(=O)O)CC[C@]3(C)C(=CC[C@@H]4[C@@]5(C)CC[C@H](O)C(C)(C)[C@@H]5CC[C@]43C)[C@H]12 |  | 46.5 µg/mL
O=C(CCc1ccc(Cl)cc1)c1ccc(Oc2ccccc2)c(O)c1 | MTT | >300 µg/mL
CC(=O)NC[C@@H]1OC(=O)N2c3ccc(C4=CCN(C(=O)CO)CC4)cc3OC[C@@H]12 | resazurin | 13.76 µg/mL
O=C1c2ccccc2C(=O)c2sc(Nc3ccc([N+](=O)[O-])cc3)nc21 |  | 1.9 µg/mL
Cn1c2ccccc2c2cc(C=NNc3nc(-c4cccc([N+](=O)[O-])c4)cs3)ccc21 | MTT | 306 µM
CCO/N=C1/C(=O)N(CCOCCOCCOCCN2C(=O)C(=O)c3cc(F)ccc32)c2ccc(C)cc21 | MTT | 62.5 µg/mL
CC(=O)NC[C@@H]1OC(=O)N2c3cc(F)c(C4=CCN(CCO)CC4)cc3OC[C@@H]12 | resazurin | >64 µg/mL
Nc1ccn([C@H]2CS[C@@H](CO)O2)c(=O)n1 |  | >100 µM
C[C@]12CCC3C(CC[C@H]4C[C@@H](O)CC[C@]34C)C1C[C@@H](Br)C21OCCO1 | MTT | 2322 µM
Cc1cn([C@@H]2C=C(F)[C@H](CO)S2)c(=O)[nH]c1=O | MTT | >100 µM
CCCNc1nc2c(s1)c1c(O)c3c(O)c(C)c4c(c32)C(=O)[C@@](C)(O/C=C/[C@H](OC)[C@@H](C)[C@@H](OC(C)=O)[C@H](C)[C@H](O)[C@H](C)[C@@H](O)[C@@H](C)/C=C/C=C(/C)C(=O)N1)O4 |  | >10 µg/mL
C[C@@H]1CC[C@]2(C(=O)O)CC[C@]3(C)C(=CCC4[C@@]5(C)CC[C@H](O)[C@](C)(CO)C5CC[C@]43C)C2[C@H]1C |  | 33.7 µg/mL
O=C(NNCc1ccccc1)c1ccccn1 |  | 601 µg/mL
CC(C)(C)C(=O)N1[C@@H]2CC[C@H]1C(n1cnc3c(NC4CC4)ncnc31)C2 | MTS | >135 µM
Cc1cn([C@H]2C[C@H](N=[N+]=[N-])[C@@H](CO)O2)c(=O)[nH]c1=O | MTT | 29 µM
CO/N=C1/C(=O)N(CCOCCOCCOCCN2C(=O)C(=O)c3cc(F)ccc32)c2ccc(C)cc21 | MTT | 62.5 µg/mL
CCOc1ccccc1-c1nc2c(s1)C(=O)c1ccccc1C2=O |  | 6 µg/mL
CCCCCCC/C=C\C(O)C#CC#CC(O)CC |  | >120 µg/mL
CN1CCN(CCCN2c3ccccc3Sc3ccc(C(F)(F)F)cc32)CC1 |  | 6.5 µg/mL
O=C(CCc1ccccc1)c1ccc(Oc2ccccc2)c(O)c1 | MTT | >300 µg/mL
CC(=O)O[C@H]1CC[C@]2(C)C3CC[C@@]4(C)C(CCC45OCCO5)C3CC[C@H]2C1 | MTT | 1536 µM
CO/N=C1/C(=O)N(CCOCCOCCOCCN2C(=O)C(=O)c3cc(F)ccc32)c2ccc(F)cc21 | MTT | 31.2 µg/mL
O=c1[nH]cnc2c1ncn2[C@H]1C=C(F)[C@@H](CO)S1 | MTT | >100 µM
COc1ccc(-c2cc(=O)c3c(O)cc(O)cc3o2)cc1O |  | 65 µg/mL
Cc1cc2c(C(C)C)c(O)c(O)c(C=O)c2c(O)c1-c1c(C)cc2c(C(C)C)c(O)c(O)c(C=O)c2c1O |  | 5.2 µM
C/C=C1\[C@H](OC2O[C@H](CO)[C@@H](O)[C@H](O)[C@H]2O)OC=C(C(=O)O)[C@H]1CC(=O)OCCc1ccc(O)cc1 |  | 250 µM
Cn1c2ccccc2c2cc(C=NNc3nc(-c4ccc(Br)cc4)cs3)ccc21 | MTT | 393 µM
NC1=NN(c2ccccc2)C(=O)C1C(=O)C(=O)Nc1ccccc1 |  | >10 µg/mL
CC(C)(C)OC(=O)N1[C@@H]2CC(n3cnc4c(NC5CC5)ncnc43)[C@H]1c1ccccc12 | MTS | >119 µM
O=C(O[C@@H]1Cc2c(O)cc(O)cc2O[C@@H]1c1ccc(O)c(O)c1)c1cc(O)c(O)c(O)c1 |  | >100 µg/mL
Cc1ccc(NCCNCC(O)CO)c2c(=O)c3ccccc3sc12 |  | 4.1 µg/mL
Oc1cc(Cl)ccc1Oc1ccc(Cl)cc1Cl | MTT | >300 µg/mL
CN1CCN(C(=O)NC(=O)C2N=C(c3ccccc3)c3ccccc3NC2=O)CC1 |  | 25 µM
O=C1C2C3CCC(O3)C2C(=O)N1SC(Cl)(Cl)Cl |  | 202.7 µg/mL
Cn1c(O)c(C2=c3ccccc3=NC2=O)c2ccccc21 |  | >100 µM
CC1=CC(=O)c2c(O)ccc(-c3ccc(O)c4c3C(=O)C(C)=CC4=O)c2C1=O |  | 233 µg/mL
COc1ccc(-c2nc3ccccc3n2-c2ccc(Br)cc2)cc1 | MTT / absorbance | 1000 µM
O=[N+]([O-])/C=C/c1cc2c(ccc3ccccc32)[nH]1 |  | 1.09 µg/mL
Nc1nc2c(ncn2[C@@H]2CS[C@@H](CO)O2)c(=O)[nH]1 |  | 63.6 µM
Nc1ccn([C@H]2CS[C@H](CO)O2)c(=O)n1 |  | >100 µM
C[C@]12CCC3C(CC[C@H]4C[C@@H](O)CC[C@]34C)C1C[C@@H](O)C2=O | MTT | 489.5 µM
CCCS(=O)(=O)NC(=O)C1N=C(c2ccccc2)c2ccccc2NC1=O |  | 15 µM
NC1=Nc2c(ncn2CCC(/C=C/P(=O)(O)O)CO)C(=O)C1 |  | >250 µM
CO[C@H]1/C=C/O[C@@]2(C)Oc3c(C)c(O)c4c(O)c(c(/C=N/N5CCN(C)CC5)c(O)c4c3C2=O)NC(=O)/C(C)=C\C=C\[C@H](C)[C@H](O)[C@@H](C)[C@@H](O)[C@@H](C)[C@H](OC(C)=O)[C@@H]1C | MTT | >300 µg/mL
Nc1ncnc2c1ncn2[C@@H]1C=C(F)[C@H](CO)S1 | MTT | >100 µM
Cn1c2ccccc2c2cc(C=NNc3nc(-c4ccc([N+](=O)[O-])cc4)cs3)ccc21 | MTT | 421.5 µM
COc1ccc(-c2c(C#N)c(NC(=O)Nc3ccccc3)nc3[nH]c(=O)[nH]c(=O)c23)c(OC)c1 |  | 47 µg/mL
Cc1cn([C@H]2C[C@H](N=[N+]=[N-])[C@@H](CO)O2)c(=O)[nH]c1=O |  | >100 µM
Cn1c2ccccc2c2cc(C=NNc3nc(-c4cccc(Cl)c4)cs3)ccc21 | MTT | 259.9 µM
CCN1C[C@]2(COC)CC[C@H](O)[C@]34C1[C@@](O)([C@@H](OC)[C@H]23)[C@@]1(O)C[C@H](OC)C2C[C@@H]4[C@@H]1[C@H]2OC(C)=O |  | 64 µg/mL
N#Cc1c(Cl)nc2nc(Cl)nc(Cl)c2c1-c1ccc(Br)cc1 |  | 190 µg/mL
C[N+](C)=c1ccc2nc3c(cc(Nc4cccc(Nc5cc6oc7cc(=[N+](C)C)ccc-7nc6c6ccccc56)n4)c4ccccc43)oc-2c1 |  | 4.13 µg/mL
COc1ccc(-c2c3c(N)n(-c4ccccc4)c(=S)nc3nc3[nH]c(=O)[nH]c(=O)c23)cc1OC |  | 80 µg/mL
CC(/C=C/c1ccccc1)=N\NC(=O)c1ccncc1 |  | 5.4 µg/mL
NC(=O)c1nc(F)c[nH]c1=O |  | >1000 µg/mL
NC1=Nc2c(ncn2CCC/C=C/P(=O)(O)O)C(=O)C1 |  | 250 µM
Cc1cn([C@H]2C=C(F)[C@@H](CO)S2)c(=O)[nH]c1=O | MTT | >100 µM
CCN(CC)C(=O)NC1N=C(c2ccccc2)c2ccccc2NC1=O |  | 4 µM
O=C(CCc1ccco1)c1ccc(Oc2ccccc2)c(O)c1 | MTT | >300 µg/mL
CC1=C(O)c2cccc(O)c2C(=O)C1=O |  | 0.93 µg/mL
Oc1cc(C(O)CCc2ccc(F)cc2)ccc1Oc1ccccc1 | MTT | >300 µg/mL
O=C(Oc1cc(O)c2c(c1)O[C@H](c1ccc(O)c(O)c1)[C@@H](O)C2)c1cc(O)c(O)c(O)c1 |  | >100 µg/mL
Cc1cc(N/N=C/c2ccccn2)nc2ccccc12 |  | >10 µg/mL
COc1cc([C@H]2OC[C@]3(O)[C@@H](c4ccc(O)c(OC)c4)OC[C@]23O)ccc1O |  | 13 µg/mL
CCCCN(CCCC)CCNc1ccc(C)c2sc3c(Cl)cccc3c(=O)c12 |  | 29.9 µg/mL
CC(=O)O[C@H]1CC[C@@]2(C)C(=CC[C@@H]3[C@@H]2CC[C@]2(C)C(=O)[C@H](OC(C)=O)C[C@@H]32)C1 | MTT | 1730 µM
N#Cc1c(NC(=O)Nc2ccccc2)nc2[nH]c(=O)[nH]c(=O)c2c1-c1ccc(Br)cc1 |  | 80 µg/mL
O=C(NC[C@@H]1OC(=O)N2c3cc(F)c(C4=CCN(C(=O)CO)CC4)cc3OC[C@@H]12)C1CC1 | resazurin | >64 µg/mL
CO/N=C1/C(=O)N(CCOCCOCCOCCN2C(=O)C(=O)c3ccccc32)c2ccc(C)cc21 | MTT | 62.5 µg/mL
Nc1nc(F)nc2c1ncn2[C@@H]1CS[C@@H](CO)O1 |  | 45.4 µM

For reference, 7 entries again:

compound	method	result
O=[N+]([O-])c1ccc2oc([N+](=O)[O-])cc2c1		0.31 µg/mL
Nc1nc(F)nc2c1ncn2[C@@H]1CS[C@@H](CO)O1		45.4 µM
NC1=Nc2c(ncn2CCC(/C=C/P(=O)(O)O)CO)C(=O)C1		>250 µM
C[N+](C)=c1ccc2nc3c(cc(Nc4cccc(Nc5cc6oc7cc(=[N+](C)C)ccc-7nc6c6ccccc56)n4)c4ccccc43)oc-2c1		4.13 µg/mL
Oc1cc(Cl)ccc1Oc1ccc(Cl)cc1Cl	MTT	>300 µg/mL
CC(/C=C/c1ccccc1)=N\NC(=O)c1ccncc1		5.4 µg/mL
O=C(CCc1ccccc1)c1ccc(Oc2ccccc2)c(O)c1	MTT	>300 µg/mL